Assay results from PMC8442604 (Frontiers in Immunology, 2021).

Molecular target: SARS-CoV-2 RBD protein (321–591) (SARS-CoV-2, Wuhan-Hu-1 (MN908947), UniProt P0DTC2)
Assay: cell-based or functional assay

B1: CV30 (antibody, V domains shown)
VH: QVQLVESGGGLIQPGGSLRLSCAASGVIVSSNYMSWVRQAPGKGLEWVSVIYSGGSTYYADSVKGRFTISRDNSKNTLYLQMNSLRAEDTAVYYCARDLDVSGGMDVWGQGTTVTVSS
VL: not shown
  IC50 of neutralisation of authentic SARS-CoV-2 on Vero E6 cells (CPE assay): 0.293 µg/mL
